Series [1] is described as follows: Cytotoxicity against HIV2 ROD infected human MT4 cells by MTT assay. The class given is cell-based. The conditions noted are these: MT4 cells infected with HIV-2 ROD. An outline of the steps: (§1)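 MT-4 cells (3 × 10^4 per well) were cultured in microdilution trays with various concentrations of compound, then incubated 5 days at 37 °C, and viable cell number was read by MTT.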
In general terms: Formazan colour is commonly taken as a measure of viable cells.

Series [2] is described as follows: Cytotoxicity against HIV1 3B-infected human MT4 cells by MTT assay. It is filed as cell-based. The conditions noted are these: MT4 cells infected with HIV-1 3B. An outline of the steps: as §1

The values below come from ChEMBL document CHEMBL1154855 (Eur J Med Chem, 2010).

In general, CC50 refers to the concentration that lowers cell viability or growth by half. As to `COc1cc(/C=C/C(=O)CC(=O)/C=C/c2ccc(O)c(OC)c2)ccc1O` [CURCUMIN], the CC50 in series [1] and in series [2] was > 37 nM each time.
